Patent publication US7824691B2 (priority 2005, dated 2010)
Some peptides are written in HELM: one residue between dots, names in brackets for other building blocks, links after the first $.

Experiment: peptide made by a vendor (peptide synthesis; PAL-PEG-PS resin)
Settings: whole synthesis

PEPTIDE1{Y.S.P.W.T.N.F.[am]}$$$$V2.0
final HPLC purity: 99%
